The values that follow come from article PMC11774035.

Construct, isoform or probe ends are uncertain for at least one entry. Where a protein sequence is shown, tags need not be part of it.

This series has as its target T1, His6-Lrp (Klebsiella oxytoca MIT 09-7231) (UniProt A0A181XPK7).
T1 sequence (looked up, limits assumed): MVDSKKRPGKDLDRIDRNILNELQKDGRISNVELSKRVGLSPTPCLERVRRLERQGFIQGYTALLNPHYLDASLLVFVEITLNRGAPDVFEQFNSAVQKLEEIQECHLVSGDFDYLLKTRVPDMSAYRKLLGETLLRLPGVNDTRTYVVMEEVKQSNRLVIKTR
As to the kind of experiment: EMSA. Conditions: 7 mM L-leucine, recombinant protein. On the technique in general: Mobility shift assays separate free from complexed probe on a gel.

For the sequence “CGTTGAAGGTCAATAGCCGTACCTGCTATCTCTCCTGGCATGAAGCGGCAGGCCGCGATAAAGGCCATCAGTGGATGGAAGAATTGCTGGTGAGTATCTGCCAGCGCTAAACTGTCGCAATACAAACGGGGGCTTCGGCTCCTGCTTTGTGTGACAAAAATCACTAAATGCAGAATTTTATTCTGTTTGCATTGTTCGGTAACCAACGCGGTCAGATAAAAAATGGATGATTTGCTGCTGTTGGTTATTTTCCCCGAGCATTGACTATCATATTTTCTTATCGCCGAAGTTTTTCACCGTGTTTTACCTGCGAATCTTTCTTTTATTCTTTTAATGCCGGTCAAGCGCCGACGCTCGCCAATTGCCTGCCCGTAAGCGAGCAGTTATGGTAACGGCATGCAGTCTATTCATCTCAATGCGAAGCTATTGCGCTTCGTCTTGTGCGAGCGCGCGGAAATCGGATTCCGCTGTCGTTAAAAACAATAAGCCGGGAGGCAAACCATGGAGAT (double strand) [ilvI regulatory region]”, the binding result (positive control, 40 mM HEPES (pH not stated), 8 mM MgCl2, 50 mM KCl, 1 mM DTT, 0.1 mg/mL BSA, 0.2 uM DNA, 0-0.8 uM His6-Lrp, protein details: N-terminal His6, probe letters rebuilt from the primers and the genome) is listed as “binds”.
For the sequence “TCTCTCCTGGAGAATTAGGAACGTTCACACGCATAAAATCTTCTCTTGAAGAAGAAATTAAAGATCTAAAGAAATGCCGCCAGCTTACCGTGAGATGCTTCTAAGAAAACACCGCAAAACAAGCAACATATAAGCAACACAAACATAACTAAGCGTTGCTTTCAATAGTCTATCTTCGAACCTCACCCTCAGTCAATTTGATTTCCAAAAAAAAATCATATAGCAAAAAATAAAAAACAATCAAAAATAATAACCATAAAAATCAATAACATGTAAAAACATAAATCAAATATAAATTTTTTTGATTGACATAATGCACTCATTGGCGTGCAATATTTGTGCAAACCGTATCGTCTTTCATGTCCAGTAAACAGACAAGGAATAGCACTTTCTCATCGCTTTTTTGTTAAAAAACAAACGAAAAACCTGTTAAATTTCGAGTGAGAGA (double strand) [aroX-npsA intergenic region WT]”, under “shift at 0.4 and 0.8 uM Lrp, 40 mM HEPES ([…], room temperature 20 min, […], protein details: N-terminal His6, probe letters rebuilt from the primers and the genome”, the binding result is reported as “binds”.
